This note sets out measurements from BindingDB's records for 10.7270/Q2ZW1P2T.

By UniProt entry, the sequences of proteins in these tests, tags left out. Residues count along the entry.
UniProt P25910, 19-249 limits assumed: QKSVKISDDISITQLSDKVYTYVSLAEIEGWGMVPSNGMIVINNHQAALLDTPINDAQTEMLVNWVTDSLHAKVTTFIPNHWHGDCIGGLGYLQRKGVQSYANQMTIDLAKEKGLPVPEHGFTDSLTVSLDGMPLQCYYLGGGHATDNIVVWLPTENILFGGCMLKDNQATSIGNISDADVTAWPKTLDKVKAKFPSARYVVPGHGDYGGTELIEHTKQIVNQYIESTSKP
UniProt P30897, 29-298 limits assumed: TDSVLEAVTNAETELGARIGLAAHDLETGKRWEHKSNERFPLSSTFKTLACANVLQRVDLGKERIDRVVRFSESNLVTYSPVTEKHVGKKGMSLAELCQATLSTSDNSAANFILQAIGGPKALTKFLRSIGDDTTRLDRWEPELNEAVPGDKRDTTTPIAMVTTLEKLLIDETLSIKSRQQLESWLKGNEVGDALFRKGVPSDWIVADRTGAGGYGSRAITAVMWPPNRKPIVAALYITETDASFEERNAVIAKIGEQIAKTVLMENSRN

Molecules are shown by their SMILES.

The target of the first experiment is Metallo-beta-lactamase type 2 (Bacteroides fragilis, UniProt P25910). The experiment can be described thus: Inhibitory activity against Bacteroides fragilis 88854 Class-I beta-lactamase enzyme.
As to `C[C@@]1(CSC2=NCCS2)S[C@@H]2[C@H](Br)C(=O)N2[C@H]1C(=O)O`, the 50% inhibitory concentration (IC50) is 32.7 nM.
`C[C@@]1(CSc2nc[nH]n2)S[C@@H]2[C@H](Br)C(=O)N2[C@H]1C(=O)O` gave an IC50 of 65.9 nM.
Still for that read-out and setting: next, `CC1(C)S[C@@H]2[C@H](Br)C(=O)N2[C@H]1C(=O)O`: 46.4 nM.

Another experiment addresses Beta-lactamase (Proteus mirabilis, UniProt P30897). Kind of experiment: Inhibitory activity against Proteus vulgaris HJ33C Class-I beta-lactamase enzyme.
Take `C[C@@]1(CSC2=NCCS2)S[C@@H]2[C@H](Br)C(=O)N2[C@H]1C(=O)O`: half-maximal inhibition (IC50) required 7.55 nM.
Same read-out and setting: the same measure for `C[C@@]1(CSc2nc[nH]n2)S[C@@H]2[C@H](Br)C(=O)N2[C@H]1C(=O)O`: 7.91 nM.
On the same count and under the same terms, the same measure for `CC1(C)S[C@@H]2[C@H](Br)C(=O)N2[C@H]1C(=O)O`: 3.57 nM.

In general, IC50 refers to the concentration that inhibits the measured activity by half.
